In patent US20230380451A1, “MEANS AND METHODS TO DETOXIFY MYCOTOXINS” (priority 2020, published 2023):

System: primary epithelial cells derived from rainbow trout
Assay: CellTox Green Cytotoxicity Assay

Work on CC1=C[C@H]2O[C@@H]3[C@H](O)C[C@](C)([C@@]2(CO)[C@H](O)C1=O)[C@]31CO1 [DON, (3α,7α)-3,7,15-trihydroxy-12,13-epoxytrichothec-9-en-8-one] yielded a CC50 of under 1000 nM.
